We go through 54 compounds from PubChem BioAssay AID540299 (ICCB-Longwood Screening Facility, Harvard Medical School, 2011).

Sequences of proteins named here, by UniProt entry; tags and fusion partners are left off.
UniProt P9WNP5, whole entry: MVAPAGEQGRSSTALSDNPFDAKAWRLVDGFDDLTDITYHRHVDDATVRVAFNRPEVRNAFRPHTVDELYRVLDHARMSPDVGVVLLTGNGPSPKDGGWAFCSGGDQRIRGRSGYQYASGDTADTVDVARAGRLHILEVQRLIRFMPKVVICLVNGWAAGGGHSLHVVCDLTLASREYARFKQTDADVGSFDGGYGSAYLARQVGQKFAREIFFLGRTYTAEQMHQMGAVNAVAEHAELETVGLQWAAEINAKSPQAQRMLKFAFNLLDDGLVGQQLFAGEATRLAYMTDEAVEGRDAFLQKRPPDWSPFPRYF

In general, inhibition refers to the relative decrease from the control value, in per cent.

Structures are written as SMILES. The list shows a part of the results, in another mix than the full data. The source made the active and inactive calls. No stated cut-off is given here; in the data, active means inhibition above about 21% (passing the limit was not always enough); inactive means the rest.

In the test the target is 1,4-dihydroxy-2-naphthoyl-CoA synthase (Mycobacterium tuberculosis (strain ATCC 25618 / H37Rv)) (UniProt P9WNP5). Put plainly: M. tuberculosis MenB inhibitors, primary screen, biochemical, absorbance (AID 540299). The settings on record: MenB enzyme assay, absorbance read-out; hits give high values; concentration not given here.
`NC(=O)Nc1ccc([As](=O)(O)O)cc1`: the inhibition is inactive: 4.47%.
Under `O=P1(Nc2nc3ccc(Cl)cc3s2)COc2ccccc2OC1` stands inactive: -13.1%; under `CCOP1(=S)c2c(C)nn(CCC#N)c2N=C(c2ccc(F)cc2)N1C` (centres undefined), inactive: -2.96%; under `NC(=O)COC(=O)C1(O)c2ccccc2-c2ccccc21`, inactive: -20.1%.
In the case of `O=C(OC1CN2CCC1CC2)c1ccc(Cl)cc1` (centres undefined) it was inactive: -6.85%.
`Cc1cccc(OCC(=O)OC2CN3CCC2CC3)c1` (centres undefined): the inhibition was inactive: -6.14%.
Under `COc1cc(-n2cnnn2)ccc1-n1cnnn1` stands inactive: -18.7%.
In the case of `O=P1(Nc2ccccn2)COc2ccccc2OC1` it was inactive: -13.2%.
In the case of `Nc1nonc1-c1no[n+]([O-])c1-c1nonc1N` it was inactive: -37.1%.
Consider `Cc1cc(C)cc(OP(C)(=O)Nc2ccc(OC(C)C)cc2)c1` (centres undefined), for which the inhibition was inactive: -6.14%.
Under `CCSP(=O)(c1ccccc1)c1ccccc1` stands inactive: -22.2%.
In the case of `CC1(C)COP(=S)(N(C2=NCCC2)c2ccccc2)OC1` it was inactive: -20.9%; in that of `Cc1ccc(C(=O)OC2CN3CCC2CC3)cc1` (centres undefined), inactive: -7.58%.
Turning to `Cc1nn(-c2ccccc2)c2c1P(=O)(N1CCOCC1)N(C)C(c1ccccc1)=N2` (centres undefined), the inhibition was inactive: -2.97%.
In the case of `Cc1nn(CCC#N)c2c1P(=O)(Nc1ccccc1Cl)N(C)C(c1ccc(F)cc1)=N2` (centres undefined) it was inactive: -4.79%; in that of `CP(=O)(N1CCOCC1)N1CCOCC1`, inactive: -4.83%; in that of `CP(=O)(Nc1ccc(Cl)cc1)Oc1ccccc1` (centres undefined), inactive: -3.49%.
Under `COc1ccccc1OP(C)(=O)Nc1ccccc1` (centres undefined) stands inactive: 14.4%.
Under `CCN1C(=O)N(c2ccccc2)P(=S)(OC)c2cc3c(cc21)OCCO3` (centres undefined) stands inactive: 3.31%; under `O=C(O)CCC(=O)N=S(c1ccccc1)c1ccccc1.O=[N+]([O-])c1cc([N+](=O)[O-])c(O)c([N+](=O)[O-])c1`, inactive: -70.7%.
Turning to `Cc1cccc(NP(C)(=O)Oc2ccccc2)c1` (centres undefined), the inhibition is inactive: -1.8%.
As to `CCOC(=O)c1ccc(NP(C)(=O)Oc2ccc(OC)cc2)cc1` (centres undefined), the inhibition is inactive: 2.36%.
In the case of `CCn1cccc/c1=N\P1(=S)OCCO1` it was inactive: -12.8%; in that of `COP1(=S)c2c(C)nn(-c3ccccc3)c2N=C(c2ccccc2)N1C1CC1` (centres undefined), inactive: -15.8%; in that of `CP(=O)(NC(=O)Nc1ccccc1)Oc1ccccc1` (centres undefined), inactive: -25.2%.
As for `O=P1(Nc2nccs2)CC=CC1`, the inhibition was inactive: -12.7%.
In the case of `CN(C)P1(=O)Nc2ccccc2S1` (centres undefined) it was inactive: -35.6%; in that of `O=C(OC1CN2CCC1CC2)C12CC3CC(CC(C3)C1)C2` (centres undefined), inactive: -8.94%.
Take `Cc1cc(C)cc(OP(C)(=O)NCc2ccccc2)c1` (centres undefined): the inhibition is inactive: -62.6%.
In the case of `Nc1nonc1OCCOc1nonc1N` it was inactive: -24.5%.
In the case of `COP1(=S)N=C2c3ccccc3CN2c2cc(N(C)C)ccc21` (centres undefined) it was inactive: -16.7%; in that of `CC1=Nc2ccc(C(F)(F)F)cc2C1(C)C`, inactive: -114%.
With `O=C(COC(=O)C(O)(c1ccccc1)c1ccccc1)N1CCCCC1`, the inhibition was inactive: 2.66%.
In the case of `CN(C(=O)Cc1ccc(Cl)c(Cl)c1)[C@H]1CCCC[C@@H]1N1CCCC1`, the inhibition is inactive: -2.2%.
Under `CCOP(=Nc1nc2ccccc2n2nnnc12)(OCC)OCC` stands inactive: -3.14%; under `CP(=O)(Nc1ccccn1)Oc1ccccc1` (centres undefined), inactive: 1.57%.
Under `CP(=O)(Nc1ccc(Cl)cc1)Oc1ccc(F)cc1` (centres undefined) stands inactive: -2.75%; under `CCc1ccc(OP(C)(=O)Nc2cccnc2)cc1` (centres undefined), inactive: 0.775%; under `CCc1nc2c(n1)c1c(non1O)c1c2no[n+]1[O-]`, inactive: -2.27%.
Consider `OCCSCCO`, for which the inhibition is inactive: 4.19%.
Under `CC(=O)OC1(C#N)CN2CCC1CC2` (centres undefined) stands inactive: -34.9%; under `Nc1nonc1OCc1nonc1COc1nonc1N`, inactive: 4.63%; under `Cc1ccccc1NP(C)(=O)Nc1ccccc1C`, inactive: -5.92%.
In the case of `C/C1=C2N=C(/C=C3N=C(/C(C)=C4\[N-][C@@](C)([C@@H]5N=C1[C@](C)(CCC(=O)NC[C@@H](C)OP(=O)([O-])O[C@H]1[C@@H](O)[C@@H](n6cnc7cc(C)c(C)cc76)O[C@@H]1CO)[C@H]5CC(N)=O)[C@@](C)(CC(N)=O)[C@@H]4CCC(N)=O)[C@@](C)(CC(N)=O)[C@@H]\3CCC(N)=O)C(C)(C)[C@@H]/2CCC(N)=O.[C-]#N.[Co+3]` it was inactive: 4.88%; in that of `O=P(Nc1nccs1)(c1ccccc1)c1ccccc1`, inactive: 6.33%.
In the case of `CC(=O)OC1CN2CCC1C(c1ccccc1)C2` (centres undefined) it was inactive: 4.57%; in that of `O=C(OCCN1CCN(CCOCc2ccccc2)CC1)C(O)(c1ccccc1)c1ccccc1`, inactive: 4.57%.
As for `O=P1(Nc2nc3ccc(Cl)cc3s2)COc2ccccc2O1` (centres undefined), the inhibition is inactive: 4.79%.
`Cc1cc(NC2=NC3C(C(=O)N(C)C(=O)N3C)N2C)n(-c2ccccc2)n1` (centres undefined): the inhibition was inactive: -13.4%.
With `O=P1(Nc2nncs2)C=C(c2ccccc2)SC(c2ccccc2)=C1`, the inhibition is inactive: -33.4%.
Under `COc1cc2c(cc1NP(C)(=O)Oc1ccccc1)oc1ccccc12` (centres undefined) stands inactive: -29.1%; under `COC(=O)c1cc2c(s1)N=C(c1ccccc1)N(C)P2(=O)N1CCOCC1` (centres undefined), inactive: -14.1%.
Under `CC1CCC(C(C)C)C(OP(=O)(Nc2nccs2)c2ccccc2)C1` (centres undefined) stands inactive: -104%; under `O=C(OCC1CN(Cc2ccccc2)CCO1)C(O)(c1ccccc1)c1ccccc1` (centres undefined), inactive: -29.5%.
